{
  "source": "patent US9096492B2",
  "about": "“Hydrated N-fullerene amino acids, method for producing the latter, and pharmaceutical compositions on the basis thereof” (priority 2011, dated 2015)",
  "key": {"[1]": {"test_system": "A/Vladivostok/2/09 (H1N1) influenza virus", "assay_type": "in vivo, mice"}, "[2]": {"test_system": "A/Puerto Rico/8/34 (H1N1) influenza virus", "assay_type": "in vivo, mice"}},
  "note": "Where two headings read alike, the source gives them in different places.",
  "data": [
    {"substance": "N-fullerene tris(δ-aminocaproic acid) hydrate [Agent 1]", "values": [
      {"measurement": "Index of protection, %", "setting": "[1]; 30 mg/kg, Summary dose, n=25", "value": 34.7, "unit": "%"},
      {"measurement": "Index of protection, %", "setting": "[1]; 30 mg/kg, […], n=12", "value": 30.6, "unit": "%"},
      {"measurement": "Index of protection, %", "setting": "[1]; 30 mg/kg, […], n=13", "value": 43.6, "unit": "%"},
      {"measurement": "Index of protection, %", "setting": "[1]; 100 mg/kg, Summary dose, n=22", "value": 36.4, "unit": "%"},
      {"measurement": "Index of protection, %", "setting": "[1]; 100 mg/kg, […], n=10", "value": 26.7, "unit": "%"},
      {"measurement": "Index of protection, %", "setting": "[1]; 100 mg/kg, […], n=12", "value": 44.4, "unit": "%"},
      {"measurement": "Index of protection, %", "setting": "[1]; 300 mg/kg, Summary dose, n=26", "value": 64.1, "unit": "%"},
      {"measurement": "Index of protection, %", "setting": "[2]; 30 mg/kg, Summary dose, n=29", "value": 14.2, "unit": "%"},
      {"measurement": "Index of protection, %", "setting": "[2]; 30 mg/kg, […], n=14", "value": 23.5, "unit": "%"},
      {"measurement": "Index of protection, %", "setting": "[2]; 30 mg/kg, […], n=15", "value": 13.3, "unit": "%"},
      {"measurement": "Index of protection, %", "setting": "[2]; 100 mg/kg, Summary dose, n=30", "value": 37.8, "unit": "%"},
      {"measurement": "Index of protection, %", "setting": "[2]; 300 mg/kg, Summary dose, n=29", "value": 51.7, "unit": "%"},
      {"measurement": "Index of protection, %", "setting": "[2]; 300 mg/kg, […], n=14", "value": 49.4, "unit": "%"},
      {"measurement": "Index of protection, %", "setting": "[2]; 300 mg/kg, […], n=15", "value": 57.1, "unit": "%"}
    ]}
  ]
}
